The entries are a selection whose mix differs from that of the whole data set. Inconclusive results are not listed. Calls of active or inactive are those of the source. The call rests on the fitted dose curve; in most records, active means well fitted inhibition curve with a large enough effect; inconclusive means small, poorly fitted or top-dose-only effect; inactive means no such curve, though single readings can be large or run the other way.
Experiment: qHTS Primary assay for Inhibitors of Plasmodium falciparum Dd2 growth in vitro;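 further: plate controls were DMSO vehicle for no effect and reference drug for full effect; nearly all actives have a fitted effect of over 65% in size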
Settings: P. falciparum Dd2 growth, SYBR Green, 72 h; at 28.9 µM (top of the series)
Text: Malaria, a parasitic disease spread to humans through the bite of a Plasmodium infected Anopheles mosquito, continues to be a global health burden affecting millions of people, with an estimated 228 million cases and 405,000 deaths in 2018. Concerns about safety and limitations of current antimalarial treatments strongly emphasize the need to develop new therapeutic options. The scarce number of chemotypes and validated drug targets with efficacy against the liver stage, have hindered development of new antimalarials. To address this, a chemoprophylactic drug discovery effort was conducted through a combined phenotypic high-throughput asexual blood stage and liver stage screen, providing a robust foundation to identify liver-stage active lead chemotypes. Compounds were initially screened against Plasmodium falciparum Dd2 strain parasites using a in vitro SYBRGreen-1 based 72 hr proliferation assay to identify novel chemotypes to advance to liver stage assays. NIH/NCATS Early Translation Branch Assay Submitter (PI): Anton Simeonov Ph.D.
Malaria-vivax Assay Protocol: PROTOCOL TABLE (as described by Inglese et al., 2007) SEQUENCE No. (e.g., 1, 2, 3, etc.); […] (e.g., Cells, Incubation, Reagent, etc.); VALUE; DESCRIPTION SEQUENCE, Parameter, Description 1; Reagent; 3 uL complete malaria growth medium, 1536 TC treated Black clear bottom plate 2; Controls; 23 nL positive control artesunate (300 nM final) to column 1; Neutral control DMSO to columns 2-4 3; Compound; 23 nL of compounds in dose response concentration (29 uM to 0.5 nM final) 4; Reagent; 5 uL malaria infected red blood cells (2.5% hematocrit final, 0.3% parasitemia 5; Time; 72 hours at 37C (5% O2, 5% CO2, 90% N2; 95% Rh) 6; Reagent; 2 uL lysis buffer/SYBRGreen-1, 25 sec shake immediately following dispense 7; Time; ~16 hours at 37C (5% O2, 5% CO2, 90% N2; 95% Rh) 8; Detector; EnVision (PerkinElmer) bottom read at 485/14nm excitation and 535/25 nm emission NOTES (numbers refer to sequence above): 1; Complete Malaria Growth Media: 1X RPMI-1640 w/L-glutamine, 5.5g/L Albumax II, 367 uM Hypoxanthine, 25 mM HEPES, 0.25% Sodium Bicarbonate, 35 uM Gentamicin sulfate 2; Controls were added using the Kalypsis Pintool (Wako USA) equipped with 1536 pinhead 3; Compounds were added in a 7-point, titration with a high final concentration of 29 uM by Pintool from seven inter-plate titrations of library plates and two DMSO control plates at the beginning and end (see Yasgar et al., 2008). 4; Red blood cells infected with Plasmodium falciparum Dd2 parasites were used. 6; Lysis buffer: 20 mM Tris-HCl, 10 mM EDTA, 0.16% Saponin, 1.6% Triton-X, 10X SYBR Green. REFERENCE: Inglese J, Shamu CE, Guy RK. 2007. Reporting data from high-throughput screening of small-molecule libraries. Nat Chem Biol. doi:10.1038/nchembio0807-438 Yasgar A, Shinn P, Jadhav A, Auld D, Michael S, Zheng W, Austin CP, Inglese J, Simeonov A. 2008. Compound Management for Quantitative High-Throughput Screening. J Lab Autom 13:79-89. doi:10.1016/j.jala.2007.12.004

Structure (SMILES) | activity, negative = inhibition
O=C(NCC1(N2CCOCC2)CCCCC1)c1ccccc1Br | inactive: -17.6%
CCOc1ccc(C(=O)NCC2(N3CCOCC3)CCCCC2)cc1 | inactive: 17.1%
CCCOc1cccc(C(=O)NCC2(N3CCOCC3)CCCCC2)c1 | inactive: -16.2%
COc1ccccc1C(=O)NCC1(N2CCOCC2)CCCCC1 | inactive: -13.9%
O=C(NCC1(N2CCOCC2)CCCCC1)c1ccc(Cl)cc1 | inactive: -3.68%
COc1cc(C(=O)NCC2(N3CCOCC3)CCCCC2)cc(OC)c1OC | inactive: 16.3%
O=C(NCC1(N2CCOCC2)CCCCC1)c1ccccc1[N+](=O)[O-] | inactive: -15%
O=C(NCC1(N2CCOCC2)CCCCC1)c1ccccc1 | inactive: 7.57%

Reference: PubChem BioAssay AID1347417 (National Center for Advancing Translational Sciences (NCATS), 2020)
